Experimental data reported in PubChem BioAssay.
The list shows a part of the results, in another mix than the full data. Activity calls are given as the source filed them. Unless noted, how the calls were made is not given here.

The chains behind the UniProt entries cited, without tags or fusion partners.
UniProt P0DPI0, whole entry, looked up: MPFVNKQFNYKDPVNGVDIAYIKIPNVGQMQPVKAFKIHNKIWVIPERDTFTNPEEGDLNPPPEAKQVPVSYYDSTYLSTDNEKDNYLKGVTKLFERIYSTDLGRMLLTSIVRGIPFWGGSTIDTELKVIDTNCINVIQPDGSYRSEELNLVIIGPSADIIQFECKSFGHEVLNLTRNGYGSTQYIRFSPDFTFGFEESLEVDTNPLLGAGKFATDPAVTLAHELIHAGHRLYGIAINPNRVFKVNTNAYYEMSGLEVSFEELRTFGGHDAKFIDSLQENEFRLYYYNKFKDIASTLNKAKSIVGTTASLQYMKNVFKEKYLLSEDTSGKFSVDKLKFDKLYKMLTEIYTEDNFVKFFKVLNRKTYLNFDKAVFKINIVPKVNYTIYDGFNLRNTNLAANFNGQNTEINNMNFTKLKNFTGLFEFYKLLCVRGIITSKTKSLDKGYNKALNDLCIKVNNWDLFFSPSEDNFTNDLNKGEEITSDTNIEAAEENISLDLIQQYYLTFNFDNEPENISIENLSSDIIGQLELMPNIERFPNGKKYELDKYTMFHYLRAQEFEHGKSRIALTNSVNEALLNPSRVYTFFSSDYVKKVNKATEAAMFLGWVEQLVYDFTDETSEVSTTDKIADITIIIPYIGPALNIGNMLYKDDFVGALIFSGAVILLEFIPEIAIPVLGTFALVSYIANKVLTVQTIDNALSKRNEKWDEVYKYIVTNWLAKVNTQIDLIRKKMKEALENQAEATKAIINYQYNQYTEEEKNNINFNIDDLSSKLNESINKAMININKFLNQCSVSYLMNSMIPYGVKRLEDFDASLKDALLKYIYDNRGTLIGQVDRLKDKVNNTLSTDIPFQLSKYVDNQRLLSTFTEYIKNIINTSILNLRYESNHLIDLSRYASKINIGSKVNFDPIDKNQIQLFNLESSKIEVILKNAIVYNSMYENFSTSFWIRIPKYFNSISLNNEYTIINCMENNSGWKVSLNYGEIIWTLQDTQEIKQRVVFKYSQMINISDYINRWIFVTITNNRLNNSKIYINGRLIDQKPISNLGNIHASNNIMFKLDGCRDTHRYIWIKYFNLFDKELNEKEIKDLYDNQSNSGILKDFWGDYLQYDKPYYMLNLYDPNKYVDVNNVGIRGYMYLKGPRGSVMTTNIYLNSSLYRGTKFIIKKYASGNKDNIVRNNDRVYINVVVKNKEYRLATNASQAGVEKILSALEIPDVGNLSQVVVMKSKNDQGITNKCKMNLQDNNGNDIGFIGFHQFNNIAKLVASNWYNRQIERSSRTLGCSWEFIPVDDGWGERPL
UniProt P15917, whole entry, looked up: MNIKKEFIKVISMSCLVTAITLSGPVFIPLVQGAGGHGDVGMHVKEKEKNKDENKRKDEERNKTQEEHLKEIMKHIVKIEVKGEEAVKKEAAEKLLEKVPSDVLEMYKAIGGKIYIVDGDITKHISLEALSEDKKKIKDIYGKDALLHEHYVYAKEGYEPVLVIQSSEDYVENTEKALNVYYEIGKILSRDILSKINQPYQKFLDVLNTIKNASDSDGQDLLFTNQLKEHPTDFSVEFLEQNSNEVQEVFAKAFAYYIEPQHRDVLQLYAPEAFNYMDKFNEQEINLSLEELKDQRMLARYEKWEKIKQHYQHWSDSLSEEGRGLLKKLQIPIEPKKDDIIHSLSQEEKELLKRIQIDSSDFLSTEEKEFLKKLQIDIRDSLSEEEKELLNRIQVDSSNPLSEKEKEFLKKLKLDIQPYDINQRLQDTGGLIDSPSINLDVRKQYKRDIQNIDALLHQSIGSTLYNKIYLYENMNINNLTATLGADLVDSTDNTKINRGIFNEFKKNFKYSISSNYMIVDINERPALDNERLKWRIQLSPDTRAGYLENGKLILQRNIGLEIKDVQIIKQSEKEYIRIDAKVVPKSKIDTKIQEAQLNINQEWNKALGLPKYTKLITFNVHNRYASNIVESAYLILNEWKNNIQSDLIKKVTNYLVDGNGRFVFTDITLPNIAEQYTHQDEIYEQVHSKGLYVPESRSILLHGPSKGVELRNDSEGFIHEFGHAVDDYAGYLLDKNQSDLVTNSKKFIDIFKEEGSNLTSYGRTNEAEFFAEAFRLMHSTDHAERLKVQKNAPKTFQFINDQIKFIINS

Tests used:
[1] = tested on: Botulinum neurotoxin type F light chain protease (Clostridium botulinum); assay: Clostridium botulinum type F light chain protease inhibitors, microsphere substrate cleavage, validation (AID 588459); conditions: multiplex microsphere protease substrate cleavage assay, flow cytometry; at 10 µM; active compounds read high
[2] = target: Botulinum neurotoxin type A (Clostridium botulinum) (UniProt P0DPI0); assay: BoNT/A light chain protease inhibitors, biochemical, multiplex microsphere flow cytometry, validation set (AID 588460); conditions: at 10 µM, active compounds read high
[3] = target: Lethal factor (Bacillus anthracis) (UniProt P15917); assay: Bacillus anthracis lethal factor inhibition, microsphere flow cytometry protease assay, validation at 10 µM (AID 588461); conditions: multiplex microsphere protease cleavage assay, active compounds read high
[4] = Nile Red efflux blockade in pump-expressing yeast – validation compound set, multiplex, phenotypic, pilot screen (AID 588506;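 active means efflux inhibition above 0.42, the validation set average plus 4 SD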;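 further: Nile Red retained in cells so higher fluorescence means more efflux inhibition; 0 = negative control wells and 1 = enniatin B 25 µM full block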); conditions: S. cerevisiae pump-expressing triplex, Nile Red efflux flow cytometry; at 10 µM; active compounds read high; the pumps come from Candida albicans

CN(C(=O)Cc1ccc(Cl)c(Cl)c1)[C@@H]1CCCC[C@H]1N1CCCC1
inactive: inhibition [1] 4.4% | inhibition [2] 0.6% | inhibition [3] 0.8% | efflux inhibition (fraction of control) [4] 0
